Experimental findings from publication PMC12537208 are described below.

Construct, isoform or probe ends are uncertain for at least one entry.

Data set [1] concerns IHF. The data set can be described thus: EMSA. The following applies: shift at 0.05 and 0.1 uM IHF (range 0-0.1 uM), 100 ng DNA, 8 mM MgCl2, 40 mM HEPES ([…], room temperature 20 min, recombinant protein, probe letters rebuilt from the primers and the genome.
In data set [2] the test system is Fis-His6 (Klebsiella oxytoca). The data set can be described thus: EMSA. The following applies: shift at 0.5 and 1.0 uM Fis (range 0-1.0 uM), 100 ng DNA, 8 mM MgCl2, 40 mM HEPES ([…], room temperature 20 min, recombinant protein, residues 1-98, protein details: C-terminal His6, probe letters rebuilt from the primers and the genome. For orientation: In EMSA bound probe runs differently from free probe, usually more slowly.

For “TCTCTCACTCGAAATTTAACAGGTTTTTCGTTTGTTTTTTAACAAAAAAGCGATGAGAAAGTGCTATTCCTTGTCTGTTTACTGGACATGAAAGACGATACGGTTTGCACAAATATTGCACGCCAATGGGTGCCTTATGTCAATCAAAAAAGTTTATATTTGATTTATGTTTTTTCATGTTATTGATTTTTATGGTTATTATTTTTGTTGGTTTTTTATTTTTTGCTATATGATTTTTTTTTGGAAATCAAATTGACTGGGGATGAGGTTCGAAGATAGACTATTGAAAGCAACGCTTAGTTATGCTTGTGTTGCTTATATGTTGCTTGTTTTGCGGTGTTTGCTTAGAGGCATCTCACGGTAAGCTGGCGGCATTTCTTTAGATCTTTAATTTCTTCTTCAAGAGAAGATTTTATGCGTGTGAACGTTCCTAATTCTCCAGGAGAGA (double strand) [aroX-npsA intergenic region probe]”, the binding result in data set [1] and in data set [2] was “binds” in each case.
